Data as given in the supplement of paper PMC9931576.
Substitutions are numbered along the chain they refer to. Human monoclonal antibodies against the spike receptor-binding domain (heavy:light variable regions). IC50 against pseudoviruses bearing the spike of naturally observed variants; lower = stronger; >10 µg/ml means not reached at the top dose. No active / inactive call. The stated detection limit is 0.0005 µg/ml; values near or below 0.001 µg/ml lie at the floor of the assay.

B1: BD56-028 (protein)
chain 1: QVQLVQSGAEVKKPGASVKVSCKSSGYTFTTSAVHWVRQAPGQRLEWMGWINPGTGDTKFSPKFQGRVTITRDTSASTAYMELSSLRSEDTAVYYCARDIEVAAETFEYWGQGTLVTVSS
chain 2: DIQMTQSPSTLSASVGDRVTITCRASQTISSWLAWYRQKPGKAPKLLIYDASSLESGVPSRFSGSGSGTEFTLTISSLQPDDFATYYCQQSSSYPTFGQGTKVEIK
B2: BD56-057 (protein)
chain 1: QVQLVESGGGVVQPGRSLRLSCAASGFTLSSYDMHWVRQAPGKGLEWVALISSDGSDKFYADSVKGRFTISRDNSKNTLYLQMNSLRPEDMALYHCAKDTPADYSTSVVLDSWGQGTLVTVSS
chain 2: DILMTQSPSSLSASVGDRVTITCRARQNIRTFLNWYQVKPGKAPKLLIYAASSVPSGVPSRFSGSGSGTDFTLTISSLQPEDFATYYCQQSYSTPSITFGPGTRLEIK
B3: BD56-039 (protein)
chain 1: QVQLVESGGGVFQPGKSLRLSCAASEFSFSIYSMHWVRRAPGKGLEWVAQISYDGSSKSYADSVKGRFTISRDNSKNTLYLQMNSLRAEDTALYYCVRDLGYYNRSGHYHIERIDYWGQGTLVTVSS
chain 2: EIVMTQSPATLSVSPGERATLSCRASQSVGSNLAWYHQKPGQAPRLLIYDASTRATGIPARFSGSGSGTDFTLTISSLQSEDFALYYCQQYNNWPPITFGQGTRLEMK
B4: BD56-032 (protein)
chain 1: QVQLQESGPGLVKPSQTLSLTCTVSGGSLNSGSYYWSWIRQPAGKGLEWIGRIYPTGDTNYNPSLKNRVTISLDRSKNQFSLKLTFVTAADTAVYYCARERNPTVFGVADDLPEVCWGQGTLVTVSS
chain 2: DIQMTQSPSSLSASVGDRVTITCQASQDIKNYLNWYQQKPGKAPKVLIYDASSLETGVPSRFSGSGSGTDFTLTISSLQPEDIATYFCQQYDNMVTFGGGTKVEI
B5: Ehling_mAb-64 (protein)
chain 1: EVQLVETGGGLIQPGGSLRLSCAASGFTVSSNYMSWVRQAPGKGLEWVSVIYSGGSTYYADSVKGRFTISRDNSKNTLYLQMNSLRAEDTAVYYCARDLHIYGMDVWGQGTTVTVSS
chain 2: DIQMTQSPSSVSASVGDRVTITCRASQGISSWLAWYQQKPGKAPKLLIYAASSLQSGVPSRFSGSGSGTDFTLTISSLQPEDFATYYCQQANSFPNFGGGTKVEIK
B6: BD56-045 (protein)
chain 1: EVQLVESGGGLVEPGRSLRLTCAASGFTFDDYAMHWVRQVPGKGLEWVSGISWNGGIIGFADSVKGRFVISRDNAKNSLYLAMRSLRADDTALYYCTKDIQFHGESAFDSWGQGTQVTVSS
chain 2: SYVLTQTPSVSVAPGQTARITCGGNNIGSKSVHWYQQKPGQAPGLVVYDGTDRPSGIPERFSGSNSGNTATLTITRVEAGDEADYFCQVWDSNSDHYVFGTGTKVTVL
B7: BD56-041 (protein)
chain 1: EVQLVESGGGLVKPGGSLRLSCAASGFTFSKAWMSWVRQVPGKGLEWVGRIKRKTDDGPTDYAAPVKGRFTISRDDSKNTLYLVMNSLKTEDTAVYYCTTDQGLTYYDVLTGQNGDYYYYGMDVWGQGTTVTVSS
chain 2: QSVLTQPPSVSAAPGQKVTISCSGSSSNIGNNSVSWYQQLPGTAPKLLIYDNNKRPSGIPDRFSGSKSGTSATLGITGLQTGDEADYYCGTWDSSLSAWVFGGGTKLTVL
B8: BD56-019 (protein)
chain 1: QVQLVQSGSQLKKPGASVKVSCKASGYTFTSYVMNWVRQAPGQGLEWMGLINTNTGNPTYAQGFTGRFVFSLDTSVSTVYLQISSLRAADTAVYFCARGGPYYYDSSGYYNVDYDYGMDVWGRGTTVTVSS
chain 2: QSVLTQPPSVSGAPGQRVTISCTGSSSNIGAGYDVHWYQQLPGTAPKLLIYGNSNRPSGVPDRFSGSKSGTSASLASTGLQAEDEADYYCQSYDSSLSAWVFGGGTKLTVL
B9: BD56-029 (protein)
chain 1: QVQLVESGGGVVQPGRSLRLSCAASGFSFRSYGMHWVRQGPGKGLEWVAVIWFDGSGQYYADSVRGRFTISRDNSKNTLYLQMNSLAAEDTAVYFCAREKGYETSGYPFDAFDIWGQGTMVTVSS
chain 2: B8 chain 2 with G32I, Q40H, T44A, S54N, S77I, T78A, S98R, A99G, W100S, K107R
B10: BD56-037 (protein)
chain 1: EVQLVESGGALVQPGGSLKLSCAASGFTFSGSPMHWVRQTSGKGLEWVGHIRIKANNYATAYTASVKGRFTISRDDSKNTAYLQMNSLKTGDTATYYCTTSTYYDSSGSEPNDYWGQGTLVTVSS
chain 2: DIQMTQSPSSLSASVGDRVTITCRASQGISNSLAWYQQKSGKAPTLLVYAASRLEVGVPSRFSGSGSGTDYTLTISSLQPDDFATYYCQQYSSTPRTFGGGTKVEI
B11: BD56-030 (protein)
chain 1: EVQLVESGGGVVRPGGSLRLSCAASGFTFADYGMNWVRQAPGKGLEWVSGIFWNGGSPAYADSVKGRFTISRDNAKNSLYLQMSSLRAEDTALYYCARGGDDSNAYLYYYYGMDVWGQGTTVTVSS
chain 2: EIVLTQSPGTLSFSPGERATLSCRTSQSVSSSFLAWYQQRPGQAPRLLIFSASNRATGIPDRFSGSGSGTDFTLTISRLEPEDFAVYYCQQYGSSPITFGQGTRLEIK
B12: BD56-004 (protein)
chain 1: QVQLVESGGGLVKPGGSLRLSCAASGFTFSDYDMSWIRQAPGKGLEWVSKITSSRSAMHYADSVKGRFTISRDNAKNSLYLQMNSLRAEDTALYYCTRDLWTIKSGWYALDGQAFDNWGQGTLVTVSS
chain 2: QSVLTQPPSLSGAPGQRVTISCTGSSSNIGAGYDVHWYQQLPGTAPKLLIYENTNRPSGVPDRFSGSKSGTSASLAITGLQAEDEADYYCQSYDSGLSGPYWVFGGGTKLTVL

Experiments:
Experiment in all cases: pseudovirus neutralization IC50; higher = weaker neutralization
[1] = biological target: SARS-CoV-2 Omicron BA.1 spike pseudovirus
Method: (§1)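 Single-round VSV luciferase pseudovirus mixed with antibody dilutions for 1 h and put on Huh-7 cells for about a day; IC50 from the dose curve.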

[2] = biological target: SARS-CoV-2 Omicron BA.2 spike pseudovirus
Method: as §1

[3] = biological target: SARS-CoV-2 Omicron BA.2.75 spike pseudovirus
Method: as §1

[4] = biological target: SARS-CoV-2 Omicron BA.5 spike pseudovirus
Method: as §1

[5] = biological target: SARS-CoV-2 Omicron BQ.1.1 spike pseudovirus
Method: as §1

[6] = biological target: SARS-CoV-2 Omicron XBB spike pseudovirus
Method: as §1

[7] = biological target: SARS-CoV-2 early D614G spike pseudovirus
Method: as §1

Binder	pseudovirus neutralization IC50 [1] [µg/mL]	pseudovirus neutralization IC50 [2] [µg/mL]	pseudovirus neutralization IC50 [3] [µg/mL]	pseudovirus neutralization IC50 [4] [µg/mL]	pseudovirus neutralization IC50 [5] [µg/mL]	pseudovirus neutralization IC50 [6] [µg/mL]	pseudovirus neutralization IC50 [7] [µg/mL]
B1	0.00254	0.00296	0.00325	0.182	> 10	> 10	0.0083
B2	> 10	> 10	> 10	> 10	> 10	> 10	4.57
B3	> 10	> 10	> 10	> 10	> 10	> 10	0.503
B4	0.0642	0.0411	0.0665	> 10	> 10	3.9	0.0231
B5	> 10	> 10	> 10	> 10	> 10	> 10	0.58
B6	0.0198	0.0161	0.0193	3.36	> 10	> 10	0.0127
B7	> 10	> 10	> 10	> 10	> 10	> 10	> 10
B8	0.615	> 10	> 10	> 10	> 10	> 10	0.276
B9	1.86	3.64	1.49	2.37	> 10	> 10	0.361
B10	2.15	> 10	> 10	> 10	> 10	> 10	0.59
B11	3.53	> 10	> 10	8.76	> 10	> 10	0.0367
B12	0.0895	0.834	0.304	0.574	0.692	0.916	0.0154
